A mixed list of measured activities; the numbers were collected in NIAID ChemDB.

All rows: toxicity to cultured cells; cells: HEP-2; measure: CC50

CCn is the concentration with n% toxicity to the cells. Conditions beyond the fields shown may differ between rows.

| smiles | result |
|---|---|
| COc1nsc(-c2ccccc2)c1C#N | 25 µM |
| CC(C)CCC(O)C12C[C@@H]3[C@H](C)CC[C@H]3C3(C=O)CC1C=C(C(C)C)[C@@]23C(=O)O | 2.5 µg/mL |
| N#Cc1cc(C(=O)O)c(=O)n2c1[nH]c1ccccc12 | 200 µg/mL |
| Cc1cc(=O)c2c(O)c(C)c(O[C@H]3O[C@H](CO)[C@@H](O)[C@H](O)[C@H]3O)c(C)c2o1 | 83.5 µg/mL |
| CSc1nsc(SC)c1C#N | 12 µM |
| N#Cc1cc(NC(=O)c2ccccc2)c(=O)n2c1[nH]c1ccccc12 | 10 µg/mL |
| CSc1nsc(-c2cccc(Cl)c2)c1C#N | 10 µM |
| CSc1nsc(-c2ccc(O)cc2)c1C#N | 2 µM |
| CSc1nsc(-c2ccccc2)c1C#N | 20 µM |
| O=C(/C=C/c1ccc(O)c(O)c1)O[C@@H]1CC(O)(C(=O)O)C[C@@H](OC(=O)/C=C/c2ccc(O)c(O)c2)C1O | >400 µg/mL |
| N#Cc1cc(CC(=O)c2ccccc2)c(=O)n2c1oc1ccccc12 | 40 µg/mL |
| O=c1cc(-c2ccc(O)c(O)c2)oc2cc(OC3OC(CO)C(O)C(O)C3O)cc(O)c12 | >25 µg/mL |
| CSc1nsc(-c2cc[n+](C)cc2)c1C#N | 1000 µM |
| Nc1ccn(C[C@@H](CO)OCP(=O)(O)O)c(=O)n1 | 184.8 µg/mL |
| CSc1nsc(-c2ccc(OC(C)(C)C)cc2)c1C#N | >50 µM |
| CC(C)CCCCC(O)C12C[C@@H]3[C@H](C)CC[C@H]3C3(C=O)CC1C=C(C(C)C)[C@@]23C(=O)O | 2.5 µg/mL |
| CSc1nsc(-c2ccccn2)c1C#N | 50 µM |
| CC(C)C1=CC2CC3(C=O)[C@@H]4CC[C@@H](C)[C@H]4CC2(C(O)CCC2CCCCC2)C13C(=O)O | 1.8 µg/mL |
| CSc1nsc(-c2ccccc2)c1C#N | 20 µM |